Results as given in the supplement of paper PMC9931576.
Human monoclonal antibodies against the spike receptor-binding domain (heavy:light variable regions). IC50 against pseudoviruses bearing the spike of naturally observed variants; lower = stronger; >10 µg/ml means not reached at the top dose. No active / inactive call. The stated detection limit is 0.0005 µg/ml; values near or below 0.001 µg/ml lie at the floor of the assay.

B1: BD56-1314 (protein)
chain 1: EVQLVESGGGLVQPGGSLRLSCAASGFTFSNYDMHWVRQGRGKRLEWVSGIGTAGDTYHLDSVKGRFTISRENTRNSLYLQMNSLRDGDTAVYYCARGKDWLSWVFDSWGQGTLVTVSS
chain 2: DIQMTQSPSSLSASVGDRVTITCRASQSINTYLNWYQQKPGKAPKLLIYAASTLQSGAPSRFSASGSGTDFTLTISSLQPEDFATYYCQQSYTMPPVTFGQGTRLEIK
B2: BD56-1315 (protein)
chain 1: QVQLVQSGAEVKKPGSSVKVSCKASGDTFSNFAISWVRKAPGQGLELMGGIIPTFGTSNYAQKFQGRLTITADESTTTAYMELSSLRFEDTALYYCARDLMFKGESWLDPWGQGTLVTVSS
chain 2: SYVLTQPPSESVAPGKTARITCGGENIGSKSVHWYQQKPGQAPMLVVYDDGDRPSGIPERFSGSNSGNTATLTIGRVEAGDEAEYYCQVWDSFSDLHVVFGGGTKLTVL
B3: BD56-1319 (protein)
chain 1: QVQLVQSGAEVKKPGSSVRVSCKASGGNLINLALSWVRQAPGQGLEWMGGIVPILDITNYALKFQGRVTITADKSSSTAYMELSSLRSEDTAVYFCATGVRYCGGGSCNSAYFDSWGQGTLVTVSS
chain 2: EIVLTQSPGTLSLSPGERATLSCRASQSISSSHLAWYQQKPGQAPRLLMYGASNRATGIPDRFSGSGSGTDFTLTISRLAPEDFAVYYCQQYGSSPQRTFGQGTKVEIK
B4: BD56-1324 (protein)
chain 1: QVQLVESGGGVVQPGRSLRLSCEASGITFSGSGMHWVRQAPGKGLEWVALIWSDGRNKYYADFVKGRFTISRDNSKNTLYLQMNSLRAEDTAMYFCARETPGAGYPIDSWGQGTLVTVSS
chain 2: SYVLTQPPSVSVAPGKTARIPCGGNNIGSKSVHWYQQKPGQAPVLVVYDDSDRPSGIRERFSGSKSGNTATLIISRVEAGDEADYYCQVWDSSGDHVVFGGGTKLTVL
B5: BD56-1325 (protein)
chain 1: QITLKESGPTLVKPTQTLTLTCSFSGFSLTTSRVGVGWIRQPPGKALEWLALIYWDDDKRYNPSLKNRLTITKDTSKNQVVLKMTNMDPVDTATYYCAHSGDYYVSGSYRDEIWFDTWGQGALVTVSS
chain 2: SYELTQPPSVSVSPGQTARITCSGDTLRNQYVYWYQQKPGQAPVLVIFKDSERPSGIPERFSGSNSGTPVTLTITEVQAEDEADYYCQSADSRGVKFGGGTKLSVL
B6: BD56-1327 (protein)
chain 1: QVQLVQSGAEVRKPGSSVKVSCKASGGSFNSHVISWVRQAPGHGLEWMGRIIPVLGIVDYAQKFQDRVTITADKSTGTAYMELSSLRSEDTAVFYCARHQNTATTFGIGHYYGLDVWGQGTTVTVSS
chain 2: DIQMTQSPSTLSASVGDKVTITCRASQSISSWLAWYQQKPGKAPKLLISEASRLESGVPLRFSGSGSGTEFTLTISSLQPEDFATYYCQQYSTYPLFGQGTKVEIK

Columns and labels:
Experiment in all cases: pseudovirus neutralization IC50; higher = weaker neutralization
[1] = target: SARS-CoV-2 Omicron BA.1 spike pseudovirus
Description: (§1)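 Single-round VSV luciferase pseudovirus mixed with antibody dilutions for 1 h and put on Huh-7 cells for about a day; IC50 from the dose curve.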

[2] = target: SARS-CoV-2 Omicron BA.2 spike pseudovirus
Description: as §1

[3] = target: SARS-CoV-2 Omicron BA.2.75 spike pseudovirus
Description: as §1

[4] = target: SARS-CoV-2 Omicron BA.5 spike pseudovirus
Description: as §1

[5] = target: SARS-CoV-2 Omicron BQ.1.1 spike pseudovirus
Description: as §1

[6] = target: SARS-CoV-2 Omicron XBB spike pseudovirus
Description: as §1

[7] = target: SARS-CoV-2 early D614G spike pseudovirus
Description: as §1

| Binder | pseudovirus neutralization IC50 [1] [µg/mL] | pseudovirus neutralization IC50 [2] [µg/mL] | pseudovirus neutralization IC50 [3] [µg/mL] | pseudovirus neutralization IC50 [4] [µg/mL] | pseudovirus neutralization IC50 [5] [µg/mL] | pseudovirus neutralization IC50 [6] [µg/mL] | pseudovirus neutralization IC50 [7] [µg/mL] |
| --- | --- | --- | --- | --- | --- | --- | --- |
| B1 | 3.17 | 4.24 | > 10 | > 10 | > 10 | > 10 | 4.61 |
| B2 | > 10 | > 10 | > 10 | > 10 | > 10 | > 10 | > 10 |
| B3 | 0.012 | 0.00218 | 0.00351 | 1.58 | 1.43 | > 10 | 0.00402 |
| B4 | 0.693 | 0.26 | 0.312 | 6.47 | > 10 | 1.65 | 1.26 |
| B5 | > 10 | > 10 | > 10 | > 10 | > 10 | > 10 | > 10 |
| B6 | 0.0998 | 0.0836 | 0.11 | > 10 | > 10 | > 10 | 0.0785 |
